This note sets out measurements from patent publication US20160347827A1 (HENRY M JACKSON FOUNDATION FOR THE ADVANCEMENT OF MILITARY …, published 2016).

This assay concerns the target soluble F glycoprotein (sF). In words: SPR, Biacore 3000, mAb captured by anti-Fc on CM5, sF in solution.

B1: murine 5B3 monoclonal antibody (antibody, V domains shown)
VH: EVQLVESGGGLVKPGGSLKLSCAASGFTFSSYDMSWVRQTPEKRLEWVAMISSGGSYSYYPDSVKGRFTISRDNAKNTLYLQMSSLRSEDTAMYYCARQGDYAWFAYWGQGTLVTVS
VL: DIQMTQSPASQSASLGESVTITCLASQTIGTWLAWYQQKPGKSPQLLIYAATSLADGVPSRFSGSGSGTKFSFKISSLQAEDFVSYYCQQFYSTPFTFGGGTKLEIKR
The molecule B1 came in with a koff of 9.2e-05 s⁻¹ and a kon of 34000 M⁻¹ s⁻¹.

As usually defined, the koff is a measure of how fast the partners let go of each other. A higher koff goes with a short-lived complex. One may read the kon as the rate constant with which the complex forms. Read a low kon as slow association.
